A mixed list of measured activities; the numbers were collected in NIAID ChemDB.

All rows: cytotoxicity tests; cell line: CEM; read by: MTT; read-out: CC50

CCn is the concentration with n% toxicity to the cells. Rows are shuffled and stem from different studies.

{"compound": "COC1=C(C2=C(C3=C(O)C(=O)c4ccccc4C3=O)C(=O)c3ccccc3C2=O)C(=O)c2ccccc2C1=O", "result": ">100 µM"}
{"compound": "Cc1cn([C@H]2C[C@H](N=[N+]=[N-])[C@@H](COP(=O)(Nc3cc(C(=O)Nc4cc(C(=O)Nc5cc(C(=O)NCCC(=N)N)n(C)c5)n(C)c4)n(C)c3)OC3CCCCC3)O2)c(=O)[nH]c1=O", "result": "156 µM"}
{"compound": "CC(C)(C)NC(=O)[C@@H]1CN(Cc2cccnc2)CCN1C[C@@H](O)C[C@@H](Cc1ccccc1)C(=O)N[C@H]1c2ccccc2C[C@H]1OC(=O)[C@H](Cc1ccccc1)NC(=O)OC(C)(C)C", "result": ">100 µM"}
{"compound": "COC(=O)[C@H](C)NP(=O)(OC[C@@H]1C=C[C@H](n2cc(CC(=O)NCCCCCCCCCCCCNC(=O)C(F)(F)F)c(=O)[nH]c2=O)O1)Oc1ccccc1", "result": ">10 µM"}
{"compound": "CC(C)(C)NC(=O)[C@@H]1CN(Cc2cccnc2)CCN1C[C@H](C[C@@H](Cc1ccccc1)C(=O)N[C@H]1c2ccccc2C[C@H]1OC(=O)CCCCOc1ccc(C[C@H](N)C(=O)O)cc1)OC(=O)CCCCOc1ccc(C[C@H](N)C(=O)O)cc1", "result": ">100 µM"}
{"compound": "Cc1c(Cl)ccc2cc(/C=C/c3sccc3Br)c(Cl)nc12", "result": "87.09 µM"}
{"compound": "Cc1ccc(Cl)cc1Nc1nc(C(F)(F)F)ccc1C(=O)NN1CCN(c2cccc(Cl)c2)CC1", "result": ">50 µM"}
{"compound": "Cc1c(Cl)ccc2cc(/C=C/C(=O)c3cccc(Br)c3)c(Cl)nc12", "result": "47.01 µM"}
{"compound": "COC(=O)[C@H](C)NP(=O)(OC[C@@H]1C=C[C@H](n2cc(CC(=O)NCCCCCCNC(=O)C(F)(F)F)c(=O)[nH]c2=O)O1)Oc1ccccc1", "result": ">10 µM"}
{"compound": "Cc1c(OC(=O)CCCCOc2ccc(C[C@H](N)C(=O)O)cc2)cccc1C(=O)N[C@@H](CSc1ccccc1)[C@H](O)CN1C[C@H]2CCCC[C@H]2C[C@H]1C(=O)NC(C)(C)C", "result": ">100 µM"}
{"compound": "Cc1cn([C@H]2C[C@H](N=[N+]=[N-])[C@@H](COP(=O)(Nc3cc(C(=O)Nc4cc(C(=O)Nc5cc(C(=O)Nc6cc(C(=O)NCCC(=N)N)n(C)c6)n(C)c5)n(C)c4)n(C)c3)OC3CCCCC3)O2)c(=O)[nH]c1=O", "result": ">200 µM"}
{"compound": "CCCCCCCC/C=C\\CCCCCCCC(=O)OCC(COC(=O)CCCCCCC/C=C\\CCCCCCCC)OC(=O)CCC(=O)O[C@@H](C[C@@H](Cc1ccccc1)C(=O)N[C@H]1c2ccccc2C[C@H]1OC(=O)CCC(=O)OC(COC(=O)CCCCCCC/C=C\\CCCCCCCC)COC(=O)CCCCCCC/C=C\\CCCCCCCC)CN1CCN(Cc2cccnc2)C[C@H]1C(=O)NC(C)(C)C", "result": ">100 µM"}
{"compound": "Cc1c(Cl)ccc2cc(/C=C/C(=O)c3ccccc3Br)c(Cl)nc12", "result": "30.4 µM"}
{"compound": "CC1=C(/C=C/C(C)=C\\C=C\\C(C)=C\\C(=O)O)C(C)(C)CCC1", "result": ">1 µM"}
{"compound": "CCCCCCCC/C=C\\CCCCCCCC(=O)OCC(COC(=O)CCCCCCC/C=C\\CCCCCCCC)OC(=O)CCC(=O)O[C@@H]1Cc2ccccc2[C@@H]1NC(=O)[C@H](Cc1ccccc1)C[C@H](O)CN1CCN(Cc2cccnc2)C[C@H]1C(=O)NC(C)(C)C", "result": ">100 µM"}
{"compound": "COC(=O)[C@H](C)NP(=O)(OC[C@H]1C=C[C@@H](n2cc(CC(=O)NCCCCCCCCCCCCNC(=O)C(F)(F)F)c(=O)[nH]c2=O)O1)Oc1ccccc1", "result": ">10 µM"}
{"compound": "O=C1C(O)=C(C2=C(C3=C(O)C(=O)c4ccccc4C3=O)C(=O)c3ccccc3C2=O)C(=O)c2ccccc21", "result": "28 µM"}
{"compound": "Cc1cn([C@H]2C[C@H](N=[N+]=[N-])[C@@H](COP(=O)(Nc3cc(C(=O)Nc4cc(C(=O)Nc5cc(C(=O)NCCC(=N)N)n(C)c5)n(C)c4)n(C)c3)OC(C)C)O2)c(=O)[nH]c1=O", "result": "89 µM"}
{"compound": "COc1cccc2c1C(=O)C(C1=C(N)C(=O)c3ccccc3C1=O)=C(Cl)C2=O", "result": "5.7 µM"}
{"compound": "Cc1cn([C@H]2C=C[C@@H](COP(=O)(Nc3cc(C(=O)Nc4cc(C(=O)Nc5cc(C(=O)Nc6cc(C(=O)NCCC(=N)N)n(C)c6)n(C)c5)n(C)c4)n(C)c3)OC(C)C)O2)c(=O)[nH]c1=O", "result": ">200 µM"}
{"compound": "CN(C)[C@@H]1C(=O)C(C(=O)NCN2CCCC2)=C(O)[C@@]2(O)C(=O)C3=C(O)c4c(O)cccc4[C@@](C)(O)[C@H]3C[C@@H]12", "result": ">45.5 µM"}
{"compound": "COC(=O)Cc1cn([C@H]2C=C[C@@H](CO)O2)c(=O)[nH]c1=O", "result": "230 µM"}
{"compound": "O=C1C(=O)c2ccccc2C(O)=C1C1=C(I)C(=O)c2ccccc2C1=O", "result": "5 µM"}
{"compound": "Cc1c(Cl)ccc2cc(/C=C/c3cccc4c3OCCO4)c(Cl)nc12", "result": "100 µM"}
{"compound": "COC1=C(C2=C(Cl)C(=O)c3ccccc3C2=O)C(=O)c2cc(OC)ccc2C1=O", "result": "2.5 µM"}
{"compound": "COC(=O)[C@H](C)NP(=O)(OC[C@H]1C=C[C@@H](n2cc(CC(=O)NCCCCCCNC(=O)C(F)(F)F)c(=O)[nH]c2=O)O1)Oc1ccccc1", "result": ">100 µM"}

A second listing of 2 rows from above:

compound,result
COC1=C(C2=C(C3=C(O)C(=O)c4ccccc4C3=O)C(=O)c3ccccc3C2=O)C(=O)c2ccccc2C1=O,>100 µM
Cc1cn([C@H]2C=C[C@@H](COP(=O)(Nc3cc(C(=O)Nc4cc(C(=O)Nc5cc(C(=O)Nc6cc(C(=O)NCCC(=N)N)n(C)c6)n(C)c5)n(C)c4)n(C)c3)OC(C)C)O2)c(=O)[nH]c1=O,>200 µM